Four molecules from paper PMC7150849 (Viruses, 2020) can be followed below.

Common to all, as to assay type: cell-based
Experiment [1] has as its system HIV-1 QH0692WT pseudovirus. Particulars: QH0692WT (subtype B, CCR5-tropic) pseudovirus, 100 TCID50, TZM-bl cells 48 h, luciferase; mean ± SD, three independent experiments.
Experiment [2] relates to HIV-1 REJO4541WT pseudovirus. The note with it: REJO4541WT (subtype B, CCR5-tropic) pseudovirus, 100 TCID50, TZM-bl cells 48 h, luciferase; mean ± SD, three independent experiments.
Another experiment concerns HIV-1 JRFLWT pseudovirus. Particulars: JRFLWT (subtype B, CCR5-tropic) pseudovirus, 100 TCID50, TZM-bl cells 48 h, luciferase; mean ± SD, three independent experiments.
Experiment [3] concerns HIV-1 NL4-3WT pseudovirus. Particulars: NL4-3WT (subtype B, CXCR4-tropic) pseudovirus, 100 TCID50, peptide + virus 1 h room temperature, TZM-bl cells 48 h 37 °C, luciferase; mean ± SD, three independent experiments.
Experiment [4] relates to HIV-1 ZM53M.PB12WT pseudovirus. Particulars: ZM53M.PB12WT (subtype C, CCR5-tropic) pseudovirus, 100 TCID50, TZM-bl cells 48 h, luciferase; mean ± SD, three independent experiments.
For experiment [5], the system named is HIV-1 ZM109F.PB4WT pseudovirus. Particulars: ZM109F.PB4WT (subtype C, CCR5-tropic) pseudovirus, 100 TCID50, TZM-bl cells 48 h, luciferase; mean ± SD, three independent experiments.
Experiment [6] relates to HIV-1 AC10.29WT pseudovirus. The note with it: AC10.29WT (subtype B, CCR5-tropic) pseudovirus, 100 TCID50, TZM-bl cells 48 h, luciferase; mean ± SD, three independent experiments.
Experiment [7] concerns HIV-1 92RW020WT pseudovirus. The note with it: 92RW020WT (subtype A, CCR5-tropic) pseudovirus, 100 TCID50, TZM-bl cells 48 h, luciferase; mean ± SD, three independent experiments.

As for `CC[C@H](C)[C@H](NC(=O)[C@H](CCC(=O)O)NC(=O)[C@H](CCC(=O)O)NC(=O)[C@@H](NC(=O)[C@H](CCCCN)NC(=O)[C@H](CCCCN)NC(=O)[C@@H](NC(=O)[C@H](Cc1ccc(O)cc1)NC(=O)[C@H](CCC(=O)O)NC(=O)[C@H](CCC(=O)O)NC(=O)[C@@H](NC(=O)[C@H](CCCCN)NC(=O)[C@H](CCCCN)NC(=O)[C@H](CCC(=O)O)NC(=O)[C@H](Cc1c[nH]c2ccccc12)NC(=O)[C@H](CCC(=O)O)NC(=O)[C@H](CCC(=O)O)NC(=O)[C@H](Cc1c[nH]c2ccccc12)NC(=O)[C@@H](NC(=O)[C@H](CCSC)NC(=O)[C@H](CCC(=O)O)NC(C)=O)[C@@H](C)O)[C@@H](C)CC)[C@@H](C)O)[C@@H](C)CC)C(=O)N[C@@H](CC(C)C)C(=O)N[C@@H](CCCCN)C(N)=O` [HP23], the concentration for half-maximal inhibition (IC50) in experiment [1] was determined as 34.6 ± 4.9 nM; in experiment [2], 3.1 ± 0.5 nM; with HIV-1 JRFLWT pseudovirus it was 5.9 ± 2 nM; in experiment [3], 0.6 ± 0.2 nM; in experiment [4], 1.2 ± 0.1 nM; in experiment [5] it was 0.8 ± 0.1 nM. Further, the 50% inhibitory concentration (IC50) in experiment [6] amounted to 0.7 ± 0.3 nM; in experiment [7] it was 2.1 ± 1 nM.

With `CC[C@H](C)[C@H](NC(=O)[C@H](CC(C)C)NC(=O)[C@H](CCC(=O)O)NC(=O)[C@H](CCC(=O)O)NC(=O)[C@@H](NC(=O)[C@H](CCCCN)NC(=O)[C@H](CCCCN)NC(=O)[C@@H](NC(=O)[C@H](Cc1ccc(O)cc1)NC(=O)[C@H](CCC(=O)O)NC(=O)[C@H](CCC(=O)O)NC(=O)[C@@H](NC(=O)[C@H](CCCCN)NC(=O)[C@H](CCCCN)NC(=O)[C@H](CC(=O)O)NC(=O)[C@H](Cc1c[nH]c2ccccc12)NC(=O)[C@H](CCC(=O)O)NC(=O)[C@H](CCC(=O)O)NC(=O)[C@H](Cc1c[nH]c2ccccc12)NC(=O)[C@@H](NC(=O)[C@H](CCSC)NC(C)=O)[C@@H](C)O)[C@@H](C)CC)[C@@H](C)O)[C@@H](C)CC)C(=O)N[C@@H](CCCCN)C(=O)N[C@@H](CCCCN)C(=O)N[C@@H](CO)C(N)=O` [MTSC22EK], the half-inhibitory concentration (IC50) in experiment [1] was determined as 68.9 ± 7.5 nM; in experiment [2] it was 9.6 ± 2.5 nM; in the experiment with HIV-1 JRFLWT pseudovirus, 19.5 ± 6.6 nM; in experiment [3], 2 ± 0.8 nM; in experiment [4] it was 2.7 ± 0.2 nM; in experiment [5] it was 2 ± 0.4 nM. The IC50 in experiment [6] is 3.1 ± 0.7 nM; in experiment [7] it was 6.7 ± 2.8 nM.

As for `CC[C@H](C)[C@H](NC(=O)[C@H](CCC(=O)O)NC(=O)[C@H](CCCNC(=N)N)NC(=O)[C@H](CCC(=O)O)NC(=O)[C@H](Cc1c[nH]c2ccccc12)NC(=O)[C@@H](NC(=O)[C@H](CCC(=O)O)NC(=O)[C@H](Cc1c[nH]c2ccccc12)NC(=O)[C@H](CO)NC(C)=O)[C@@H](C)O)C(=O)N[C@@H](CCC(=O)O)C(=O)N[C@@H](CC(N)=O)C(=O)N[C@@H](Cc1ccc(O)cc1)C(=O)N[C@H](C(=O)N[C@@H](CCCNC(=N)N)C(=O)N[C@@H](CCC(N)=O)C(=O)N[C@H](C(=O)N[C@@H](Cc1ccc(O)cc1)C(=O)N[C@@H](CCCNC(=N)N)C(=O)N[C@H](C(=O)N[C@@H](CC(C)C)C(=O)N[C@@H](CCC(=O)O)C(=O)N[C@@H](CCC(=O)O)C(=O)N[C@@H](CO)C(=O)N[C@@H](CCC(N)=O)C(=O)N[C@@H](CCC(=O)O)C(=O)N[C@@H](CCC(N)=O)C(=O)N[C@@H](CCC(N)=O)C(=O)N[C@@H](CC(=O)O)C(=O)N[C@@H](CCCNC(=N)N)C(=O)N[C@@H](CC(N)=O)C(=O)N[C@@H](CCC(=O)O)C(=O)N[C@@H](CCCNC(=N)N)C(=O)N[C@@H](CC(=O)O)C(=O)N[C@@H](CC(C)C)C(=O)N[C@@H](CC(C)C)C(=O)N[C@@H](CCC(=O)O)C(N)=O)[C@@H](C)CC)[C@@H](C)CC)[C@@H](C)O` [SFT, sifuvirtide], the IC50 in experiment [1] was determined as 28.6 ± 1.5 nM; in experiment [2], 6.1 ± 0.2 nM; in the experiment on HIV-1 JRFLWT pseudovirus it was 9 ± 2.1 nM; in experiment [3], 1.9 ± 0.8 nM; in experiment [4], 2.1 ± 0.8 nM; in experiment [5] it was 2.6 ± 1.1 nM. In addition, the IC50 stood at 2.1 ± 1 nM in experiment [6] and 7.5 ± 3.1 nM in experiment [7].

Turning to `CC[C@H](C)[C@H](NC(=O)[C@H](CC(C)C)NC(=O)[C@H](CCC(=O)O)NC(=O)[C@H](CCC(=O)O)NC(=O)[C@@H](NC(=O)[C@H](CCCCN)NC(=O)[C@H](CCCCN)NC(=O)[C@@H](NC(=O)[C@H](Cc1ccc(O)cc1)NC(=O)[C@H](CCC(=O)O)NC(=O)[C@H](CCC(=O)O)NC(=O)[C@@H](NC(=O)[C@H](CCCCN)NC(=O)[C@H](CCCCN)NC(=O)[C@H](CC(=O)O)NC(=O)[C@H](Cc1c[nH]c2ccccc12)NC(=O)[C@H](CCC(=O)O)NC(=O)[C@H](CCC(=O)O)NC(=O)[C@H](Cc1c[nH]c2ccccc12)NC(C)=O)[C@@H](C)CC)[C@@H](C)O)[C@@H](C)CC)C(=O)N[C@@H](CCCCN)C(=O)N[C@@H](CCCCN)C(=O)N[C@@H](CO)C(N)=O` [SC22EK], the IC50 in experiment [1] is 2060 ± 292 nM; in experiment [2], 382 ± 95.5 nM; with HIV-1 JRFLWT pseudovirus, 467 ± 105 nM; in experiment [3], 47.9 ± 12.9 nM; in experiment [4], 47.3 ± 3.4 nM; in experiment [5] it was 43.6 ± 8.1 nM. Also, the values for the IC50 in experiment [6] and in experiment [7] were 111 ± 37.1 nM and 428 ± 56.9 nM, respectively.
